In US7943628B2, “Pyrimidine derivatives” (Pfizer Limited, priority 2005, dated 2011) one finds Ki data, which are given here for 1 compound.

The chains behind the UniProt entries cited, without tags or fusion partners. Where a name states a change or a piece, a line headed by the entry shows the natural chain unless it says otherwise.
UniProt Q9H3N8: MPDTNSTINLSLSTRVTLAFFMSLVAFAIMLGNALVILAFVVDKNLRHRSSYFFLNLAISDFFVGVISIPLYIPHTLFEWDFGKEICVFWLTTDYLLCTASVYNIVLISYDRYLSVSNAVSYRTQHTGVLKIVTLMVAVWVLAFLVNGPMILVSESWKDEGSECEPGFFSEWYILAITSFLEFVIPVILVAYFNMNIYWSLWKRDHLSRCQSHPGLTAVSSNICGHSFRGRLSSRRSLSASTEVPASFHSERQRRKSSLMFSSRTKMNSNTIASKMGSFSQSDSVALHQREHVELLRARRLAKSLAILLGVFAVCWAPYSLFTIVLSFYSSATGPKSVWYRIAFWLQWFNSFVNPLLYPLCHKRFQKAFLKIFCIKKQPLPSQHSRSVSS

Assay [1] concerns the target T1, histamine H4 receptor (Homo sapiens, UniProt Q9H3N8).
T1 construct: expressed in transfected cells; host or cells: CHO cells
Nature of the assay: H4 binding, method 1 ([3H]-histamine filtration binding on CHO cell membranes). The settings on record: Ki calculated from IC50 (Cheng-Prussoff). As for the experimental part: (§1) Cell pellets from CHO cells expressing the histamine H4 receptor were homogenised in ice-cold 50 mM Tris-HCl/0.5 mM CaCl2 buffer containing a protease inhibitor cocktail (Roche®, United Kingdom) using a ground glass homogeniser. Homogenates were centrifuged at 48000 g for 30 min at 4° C. The membrane pellet was resuspended in fresh buffer and the centrifugation step was repeated as described above. The membrane pellet was resuspended in 50 mM Tris-HCl in the same volume as the original cell pellet. Aliquots of membrane preparations were stored at −80° C. and were used for [^3H]-Histamine binding experiments.
Cell membranes (20-35 μg/well) were incubated for 90 minutes shaking at room temperature with 3 nM [2,5-^3H]Histamine dihydrochloride (30-60 Ci/mmol) in 50 mM Tris-HCl (pH 7.4), with or without competing H4 ligands. The reaction was terminated by rapid filtration through 0.5% polyethylenimine-soaked Unifilter GF/B plates (Packard) followed by three washes with 1 ml ice-cold 50 mM Tris-HCl. Filters were dried for 45 min at 45° C. and bound radiolabel was determined using scintillation counting techniques. Non-specific binding was defined with 10 μM JNJ7777120.
The compounds of the Examples have been tested in the H4 binding assay described above using either method 1 or method 2.

The target in assay [2] is T1, histamine H4 receptor. Nature of the assay: H4 binding, method 2 ([3H]-histamine binding with Ysi WGA beads on CHO cell membranes). The settings on record: Ki calculated from IC50 (Cheng-Prussoff). Here is the method:
as §1
Cell membranes (15 μg/well) were pre-incubated for 120 min shaking at 4° C. with Ysi WGA beads (250 μg/well) in 50 mM Tris-HCl (pH 7.4) followed by centrifugation at 1500 rpm for 5 minutes and resuspension in 50 mM Tris-HCl (pH 7.4). The membrane/bead mixture (15 μg membrane/250 μg beads well) was incubated for 90 minutes shaking at room temperature with 6.5 nM [2,5-^3H] Histamine dihydrochloride (30-60 Ci/mmol) in 50 mM Tris-HCl (pH 7.4), with or without competing H4 ligands. Non-specific binding was defined with 10 μM JNJ7777120. Bound radiolabel was determined using scintillation counting techniques after 90 minutes.

One may read the Ki as the dissociation constant of the complex between target and ligand, obtained from inhibition or displacement. For `CN[C@@H]1CCN(c2cc(NCC(C)C)nc(N)n2)C1` [Example 10, N^4-Isobutyl-6-[(3R)-3-(methyl-amino)pyrrolidin-1-yl]pyrimidine-2,4-diamine], the inhibition constant Ki in assay [1] is 2.85 nM; in assay [2], 4.11 nM.
